Source: the supplement of paper PMC9931576
Human monoclonal antibodies against the spike receptor-binding domain (heavy:light variable regions). IC50 against pseudoviruses bearing the spike of naturally observed variants; lower = stronger; >10 µg/ml means not reached at the top dose. No active / inactive call. The stated detection limit is 0.0005 µg/ml; values near or below 0.001 µg/ml lie at the floor of the assay.

B1: BD58-0574 (protein)
chain 1: QLQLQESGPGLVKPSETLSLTCTVSGGSISSSSHFWGWIRQPPGKGLEWIGNVYYSGGSTYCNPSLKSRLTISVDTSKNQLSLKLSSVAAADTAVYYCARLGRFLTTVTPGAFDIWGQGTMVSVSS
chain 2: QSALTQPASVSGSPGQSITISCTGTSSDVGSYNLVSWYQQHPGKAPKLMIYEVTKRPSGVSNRFSGSKSGDTASLTISGLQAEDEADYYCCAYAGIITLFGGGTKLTVL
B2: BD58-0586 (protein)
chain 1: QLRLQESGPGLVKPSETLSLTCTVSGGSISGTSYYWGWIRQPPGKGLEWIASIYYSGSTYYNPSFKSRVTMSVDTSKNQFSLKLSSVTAADTAVYYCARLPDTYCSDGSCYRGWFDPWGQGTLVTVSS
chain 2: DIQMTQSPSSLSASVGDRVTITCRASQSIGRYLNWYQQKPGKAPRLMMYSASNLQSGVPSRFSGSRSGTDFTLSISNLQPEDFATYYCQQSYSASWTFGQGTKVEVK
B3: BD58-0587 (protein)
chain 1: QVHLVQSGAAVKKPGSSVKVSCKASGGSFSSHTISWVRQAPGQGLEWMGKIIPFLSVANYAQRFQGRVTITADESTSTAYMELNSLTSEDTAMYYCARDRDGYFGAFDMWGQGTMVTVSA
chain 2: QSVLTQPPSVSGAPGQRVTISCTGSGSNIGAGYDVHWYQQLPGTAPKVLIYGNNHRPSGVPDRFSGSKSDTSASLAIAGLQAEDEADYFCQSYDSSLSDVIFAGGTKLTVL
B4: BD56-1192 (protein)
chain 1: QVQLVESGGGVVQPGRSLRLSCAASGFNFSSYAMHWVRQAPGKGLEWVAVISYDGSNKYYADSVKGRFPMSRDNSKKTLYLQMNRLRAEDTAVYYCARDLDLWFGEGYYGMDVWGQGTTVTVSS
chain 2: QSALTQPASVSGSPGQSITISCTGTSSDVGDYNYVSWYQQHPGKAPKLMIYDVSDRPSGVSNRFSGSKSGNTASLTISGLQAEDEADYYCNSYTSSGTRVFGGGTKLTVL
B5: BD56-1219 (protein)
chain 1: EVRVVESGGRLVKPGGSLRLSCAASGFNFRTYNMNWLRQAPGKGPEWVSSIGASGSYRNYADSVRGRFTISRDNAKNSLYLQMNSLRADDTAVYYCARDSDWGGDILTGSSHIFDYWGQGTVVTVSS
chain 2: DIQMTQSPSSLSASVGDRVTITCRASQTISNSLNWYHQKPGRAPKLLIYGAISSQSGVPSRFSGSGSGTDFTLTISSLQLEDFATYYCQQSYSAPPTFGGGTKVEIK
B6: BD56-1223 (protein)
chain 1: QVQLLQSGAEVKKPGSSVRVSCKASGGTLIDYALSWVRQAPGQGLEWMGGIVPILDITNYAQKFQGRVTITADKSTSTAYMELSSLRSEDTAVYFCATGVQYCSGGSCNSAYFDSWGQGTLVTVSS
chain 2: EIVLTQSPGTLSLSPGERATLSCRASQSISSSHLAWYQQKPGQAPRLLIYGASSRATGIPDRFSGSGSGTDFTLTISRLAPEDFAVYYCQQYGSSPQRTFGQGTKVEIK
B7: BD56-1229 (protein)
chain 1: QVQLVQSGAEVKKPGASLKVSCKASGYSFTSYYIHWVRQAPGQGLEWVGLINPTGGYTYAQKFEGRVTMTSDSSTSTVYMEMRSLRSEDTAVYYCARDIVLIPASSGVDVWGQGTTVTVCS
chain 2: EIVLTQSPATLSLSPGERATLSCRASQSVSTSLAWYQHKPGQTPRLLIYDASNRATGIPARFSGSGSGTDFTLTISSLEAEDFAVYYCQQRSSWPRIFSFGPGTKVDVK
B8: BD56-1230 (protein)
chain 1: QVQLVQSGAEVKKPGSSVKVSCKSFGGTLIDYAVSWVRQAPGEGLEWMGGIVPILDTTNYAQKFQGRVSITADKSTSTAYMELSGLTSEDTAVYYCAAGGQYCGGDRCYSSYFDYWGQGALVTVSS
chain 2: DIVLTQSPGTLSLSPGERATLSCRASQSISSTHLAWYQQKPGQAPRLLIYGASSRATGIPDRFSGSGSGTDFTLTISRLAPEDFAVYYCQQYGSSPQRTFGQGTKVEIK
B9: BD56-1231 (protein)
chain 1: HVQLVQSGAEVKKPGSSMKVSCKASGGTMINYAISWVRQAPGQGLEWMGDIVPILDATNIAQKFRGRVSITADKSTNTAYMEVSGLTSEDTAVYFCAAGGQYCGGGDCFSSYFDYWGEGSLVTVSS
chain 2: DIVLTQSPGTLSLSPGERATLSCRASQSISSTYLAWYQQKPGQAPRLLIYGASSRATGIPDRFSGSGSGTDFTLSITRLAPEDFAVYYCQQYGNSPQRTFGQGTKVEIK
B10: BD56-1235 (protein)
chain 1: QVQLVQSGPEVKKPGSSVKVSCKASGGTLINYAVTWVRQAPGQGLEWMGGIVPILDMTNYAQRFQGRVTVTADKSTNTAFMELSSLRSEDTAVYYCATGGPFCSGTICYSSYSDSWGQGTLVTVSS
chain 2: EIVLTQSPGTLSLSPGERATLSCRASQSLSSSHLAWYQHKPGQAPRLLIYAASNRATGIPDRFSGSGSGTDFTLTISRLAPEDFAVYYCQQYGSSPQRTFGQGTKVEIK
B11: BD56-1243 (protein)
chain 1: QVQLVQSGAEVKKPGSSVRVSCKASGGTLINYALSWVRQAPGQGLEWMGGIVPILDITNYSPKFQGRVTITADKSTSTAYMELSSLRSEDTAVYFCATGVRYCSGGSCNSAYFDSWGQGTLVTVSS
chain 2: EIVLTQSPGTLSLSPGERATLSCRASQSISSSHLAWYQHKPGQAPRLLIYGASSRATGIPDRFSGSGSGTDFTLTISRLAPEDFAVYYCQQYGSSPQRTFGQGTKVEIK
B12: BD56-1245 (protein)
chain 1: QVQLVQSGAEVKKPGASVKVSCKASGYMFTSYGISWVRQAPGQGLEWIGWISAYNGDTKYAHKVQDRLTMTTDTSTSTAYMELRSLRYDDTAVYYCARDFGEISGSENHDYWGQGTLVTVSS
chain 2: EIVLTQSPATLSLSPGERATLSCRASQSVSIYLAWFQQKPGQAPRLLIYHASTRATGIPGRFSGSGSGTDFTLTISSLEPEDFAVYYCQHRSNWPFFGQGTRLEIK

target: SARS-CoV-2 Omicron BA.1 spike pseudovirus; assay: pseudovirus neutralization IC50; higher = weaker neutralization
Description: (§1)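 Single-round VSV luciferase pseudovirus mixed with antibody dilutions for 1 h and put on Huh-7 cells for about a day; IC50 from the dose curve.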

Row | Binder | pseudovirus neutralization IC50 [µg/mL]
1 | B1 | > 10
2 | B2 | > 10
3 | B3 | 0.297
4 | B4 | 0.544
5 | B5 | 1.09
6 | B6 | 0.00453
7 | B7 | 3.24
8 | B8 | 0.226
9 | B9 | > 10
10 | B10 | 0.444
11 | B11 | 0.26
12 | B12 | 0.177

target: SARS-CoV-2 Omicron BA.2 spike pseudovirus; assay: as above
Description: as §1

Row | Binder | pseudovirus neutralization IC50 [µg/mL]
13 | B1 | > 10
14 | B2 | > 10
15 | B3 | 0.102
16 | B4 | 0.49
17 | B5 | 1.48
18 | B6 | 0.00121
19 | B7 | 1.32
20 | B8 | 0.151
21 | B9 | 0.674
22 | B10 | 0.0467
23 | B11 | 0.0133
24 | B12 | 0.0794

target: SARS-CoV-2 Omicron BA.2.75 spike pseudovirus; assay: as above
Description: as §1

Row | Binder | pseudovirus neutralization IC50 [µg/mL]
25 | B1 | > 10
26 | B2 | > 10
27 | B3 | 0.212
28 | B4 | 0.167
29 | B5 | 1.8
30 | B6 | 0.00439
31 | B7 | 4.56
32 | B8 | 0.0987
33 | B9 | 0.791
34 | B10 | 0.236
35 | B11 | 0.0604
36 | B12 | 0.158

target: SARS-CoV-2 Omicron BA.5 spike pseudovirus; assay: as above
Description: as §1

Row | Binder | pseudovirus neutralization IC50 [µg/mL]
37 | B1 | > 10
38 | B2 | > 10
39 | B3 | > 10
40 | B4 | 0.108
41 | B5 | 1.24
42 | B6 | 0.815
43 | B7 | 1.22
44 | B8 | 2.92
45 | B9 | 2.29
46 | B10 | > 10
47 | B11 | > 10
48 | B12 | 1.93

target: SARS-CoV-2 Omicron BQ.1.1 spike pseudovirus; assay: as above
Description: as §1

Row | Binder | pseudovirus neutralization IC50 [µg/mL]
49 | B1 | > 10
50 | B2 | > 10
51 | B3 | > 10
52 | B4 | 0.539
53 | B5 | > 10
54 | B6 | > 10
55 | B7 | 1.34
56 | B8 | 1.88
57 | B9 | > 10
58 | B10 | > 10
59 | B11 | > 10
60 | B12 | > 10

target: SARS-CoV-2 Omicron XBB spike pseudovirus; assay: as above
Description: as §1

Row | Binder | pseudovirus neutralization IC50 [µg/mL]
61 | B1 | > 10
62 | B2 | > 10
63 | B3 | > 10
64 | B4 | 1.94
65 | B5 | 1.08
66 | B6 | > 10
67 | B7 | 1.07
68 | B8 | > 10
69 | B9 | > 10
70 | B10 | > 10
71 | B11 | > 10
72 | B12 | 1.64

target: SARS-CoV-2 early D614G spike pseudovirus; assay: as above
Description: as §1

Row | Binder | pseudovirus neutralization IC50 [µg/mL]
73 | B1 | > 10
74 | B2 | > 10
75 | B3 | 1.55
76 | B4 | 9.84
77 | B5 | > 10
78 | B6 | 0.0998
79 | B7 | > 10
80 | B8 | 1.59
81 | B9 | > 10
82 | B10 | > 10
83 | B11 | 0.001
84 | B12 | 0.0632
